Share of PSTVd loop 15 variants by leaf site

Data from the supplement of Wu et al. 2024, doi:10.1371/journal.ppat.1012142.

The pool varies loop 15 of the PSTVd intermediate strain in the pattern GGAAACCGNNNNNNC; wild type is GGAAACCGCUACUAC (upper and lower strand joined, each 5' to 3', the first 7 letters being the upper strand, closing pairs included).

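A pool of all variants was put on leaves of three Nicotiana benthamiana plants. Progeny were sequenced from the inoculated region (day 5), the margin of the inoculated leaf (day 10) and systemic leaves (day 12).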

Numbers give reads per thousand; 0 = not seen among the reads, higher = more abundant.
Each value is the mean of three plants.
"Pool" is the share in the plasmid pool used as inoculum, on the same scale.
The inoculated region was read from the minus strand, the other sites from the plus strand.
IR is the inoculated region, LM the leaf margin, Sys the systemic leaves.
With 43,870-66,106 reads a sample, very low values are single reads.
Sequences that differ at fixed positions probably stem from PCR or sequencing errors, and defective variants can be carried along by functional ones.
For reference, wild type rose from 33.9 per thousand in the pool to 202, 200, 159 (inoculated region), 724, 746, 710 (leaf margin) and 856, 883, 880 (systemic leaves).

GGAAACCGCCGGGAC (pool 0.112): IR 0.574; LM 0.130; Sys 0.00537.
GGAAACCGCGGUAGC (pool 0.144): IR 0.122; LM 0; Sys 0.
GGAAACCGAUGCAAC (pool 0.336): IR 0.0878; LM 0; Sys 0.
GGAAACCGCCCUGUC (pool 0.0960): IR 0.286; LM 0.0148; Sys 0.0107.
GGAAACCGGGUUACC (pool 0.256): IR 0.0725; LM 0.0187; Sys 0.
GGAAACCGGUGCCGC (pool 0.272): IR 0.0868; LM 0.0141; Sys 0.
GGAAACCGAGCCGGC (pool 0.272): IR 0.185; LM 0.0362; Sys 0.00537.
GGAAACCGUAGCCGC (pool 0.176): IR 0.111; LM 0; Sys 0.
GGAAACCGCUAAUAC (pool 0.336): IR 27.4; LM 16.0; Sys 6.95.
GGAAACCGUCUCCGC (pool 0.240): IR 0.0798; LM 0.0162; Sys 0.
GGAAACCGUCGAGGC (pool 0.256): IR 0.0998; LM 0; Sys 0.
GGAAACCGGCGUCAC (pool 0.160): IR 0.103; LM 0.0200; Sys 0.00537.
GGAAACCGUCAGCUC (pool 0.192): IR 0.382; LM 0.200; Sys 0.0107.
GGAAACCGCCGCCUC (pool 0.0640): IR 0.0920; LM 0.0121; Sys 0.
GGAAACCGCGCGCUC (pool 0.224): IR 0.0956; LM 0.00668; Sys 0.
GGAAACCGAUUCCCC (pool 0.256): IR 0.0806; LM 0; Sys 0.
GGAAACCGGCGCCGC (pool 0.288): IR 0.0721; LM 0.00668; Sys 0.00537.
GGAAACCGCUCCAGC (pool 0.224): IR 0.118; LM 0.00668; Sys 0.00537.
GGAAACCGGGGUGCC (pool 0.176): IR 0.125; LM 0; Sys 0.
GGAAACCGAGUUUAC (pool 0.192): IR 0.114; LM 0.0121; Sys 0.
GGAAACCGCUCACUC (pool 0.176): IR 0.122; LM 0.0121; Sys 0.
GGAAACCGCUGGGGC (pool 0.256): IR 0.0896; LM 0.0195; Sys 0.
GGAAACCGUUAUUUC (pool 0.352): IR 0.337; LM 0.116; Sys 0.0698.
GGAAACCGGAGUACC (pool 0.416): IR 0.0642; LM 0; Sys 0.00537.
GGAAACCGCAUUGAC (pool 0.112): IR 0.0930; LM 0.00539; Sys 0.00537.
GGAAACCGAUACAAC (pool 0.240): IR 0.273; LM 0.130; Sys 0.0360.
GGAAACCGUAGGAUC (pool 0.256): IR 0.0740; LM 0.0187; Sys 0.
GGAAACCGCUGGAUC (pool 0.256): IR 0.149; LM 0.0121; Sys 0.
GGAAACCGGCGAUCC (pool 0.304): IR 0.111; LM 0; Sys 0.00537.
GGAAACCGAAUUGUC (pool 0.272): IR 0.164; LM 0.0108; Sys 0.00537.
GGAAACCGCGGCCUC (pool 0.304): IR 0.122; LM 0.00539; Sys 0.00760.
GGAAACCGAGUGUCC (pool 0.112): IR 0.0792; LM 0.0267; Sys 0.
GGAAACCGUGGAAUC (pool 0.224): IR 0.0615; LM 0.0148; Sys 0.
GGAAACCGGAUUGCC (pool 0.336): IR 0.0722; LM 0.00539; Sys 0.
GGAAACCGCAUCCGC (pool 0.256): IR 0.125; LM 0.00742; Sys 0.
GGAAACCGUUUUUUC (pool 0.192): IR 0.380; LM 0.120; Sys 0.0215.
GGAAACCGUAAUGCC (pool 0.224): IR 0.0994; LM 0; Sys 0.
GGAAACCGGAUUGUC (pool 0.288): IR 0.116; LM 0.00668; Sys 0.00537.

A selection of 3 entries from above:

- GGAAACCGCGGCCUC (pool 0.304): IR 0.122; LM 0.00539; Sys 0.00760
- GGAAACCGCUGGAUC (pool 0.256): IR 0.149; LM 0.0121; Sys 0
- GGAAACCGGGUUACC (pool 0.256): IR 0.0725; LM 0.0187; Sys 0